This is an account of results in US20210223230A1, “Neamine Compositions and Methods of Use Thereof” (President and Fellows of Harvard College, priority 2008, published 2021).

The subject of this assay is ANG. The experiment in a line: Nuclear translocation of ANG. Format: cell-based. As to conditions: inhibitors tested.

For the molecule `O=[As]c1ccccc1` (stereo not shown), the “effect on nuclear translocation of ANG” value is listed as “no detectable effect”.
